Measured values from several laboratories, pooled; numbers as filed in NIAID ChemDB.

All rows: target-level tests; species: HIV-1; protein: Reverse transcriptase

Conditions beyond the fields shown may differ between rows.

compound | read by | mutations | endpoint | strain or isolate | value
Cc1c(Cc2c(F)cccc2F)nc(SCc2ccc([N+](=O)[O-])cc2)[nH]c1=O | nucleotide incorporation / radiometric | RT-181I | IC50 |  | >400 µM
CC(C)=CCOc1cc(NC(=S)c2ccoc2C)ccc1Cl |  | RT-M184V | IC50 |  | 4.2 µM
C[C@H](NC(=S)Nc1ccccn1)c1cccc2ccccc12 |  |  | Ki |  | >100 µM
O=C(O)Cn1cnc2c(=O)[nH]c(NC(=O)OCc3ccccc3)nc21 | nucleotide incorporation / radiometric | Y181I | Ki | NNRTI-resistant | 12 µM
Cc1cc(S(N)(=O)=O)ccc1NC(=O)COc1ccc(Cl)cc1C(=O)c1cc(Cl)cc(C#N)c1 | fluorescence | RT-V106A Y181C | IC50 |  | 0.0035 µM
O=C(c1cc(O)c(O)c(O)c1)N1CCN(S(=O)(=O)c2ccccc2)CC1 | ELISA / nucleotide incorporation |  | IC50 | BH10 | >50 µM
C[C@@H](CNC(=S)Nc1ccc(Cl)cn1)C1CCCCC1 |  |  | Ki |  | 1.2 µM
O=C(/C=C/c1ncc(-c2cccnc2)cn1)Nc1cc(-c2ccc3c(c2)CCCC3)[nH]n1 | RT activity / nucleotide incorporation / luminescence | Y181C | IC50 | NL4-3 | 0.21 µM
CC(C)=CCN1Cc2cccc3[nH]c(=S)n(c23)C[C@@H]1C | RT activity |  | IC50 | RT-WT | 0.5 µM
S=C(NCCc1cccc(Cl)c1)Nc1ccc(Br)cn1 | nucleotide incorporation |  | Ki |  | 4.7 µM
C[C@H](CNC(=S)Nc1ccc(Br)cn1)c1ccccc1 |  |  | IC50 |  | 1.9 µM
CC(C)(C)OC(=O)Cn1cnc2c(Oc3ccccc3[N+](=O)[O-])nc(NC(=O)OCc3ccccc3)nc21 | nucleotide incorporation / radiometric | Y181I | Ki | NNRTI-resistant | 40 µM
O=C(Nc1cc(-c2ccc3c(c2)CCCC3)[nH]n1)c1ccc(-c2cncnc2)s1 | RT activity / nucleotide incorporation / luminescence | WT | IC50 | NL4-3 | 0.45 µM
CCc1c(Sc2ccccn2)n(COCc2ccccc2)c(=O)[nH]c1=O | RT activity | RT-L100I | IC50 |  | 0.3 µM
Cc1ccc(NC(=S)N[C@@H](C)c2ccccc2)nc1 |  |  | IC50 |  | >100 µM
C/C=C/CSc1cc(NC(=S)c2ccsc2C)ccc1Cl |  | RT-M184V | IC50 |  | 8 µM
C[C@H](CNC(=S)Nc1ccc(Cl)cn1)C1CCCCC1 |  |  | Ki |  | >100 µM
O=C(c1cc(O)c(O)c(O)c1)N1CCN(S(=O)(=O)c2ccc(F)cc2)CC1 | ELISA / nucleotide incorporation |  | IC50 | BH10 | >50 µM
O=C(Nc1cc(-c2ccc3c(c2)CCCC3)[nH]n1)c1ccno1 | RT activity / nucleotide incorporation / luminescence | Y181C | IC50 | NL4-3 | 0.54 µM
COc1ccc(CSc2nc(Cc3c(Cl)cccc3Cl)c(C)c(=O)[nH]2)c(OC)c1 | nucleotide incorporation / radiometric | RT-K103N | IC50 |  | >400 µM
Cc1c(C(=O)N(C)Cc2cccnc2)[nH]c(C(N)=O)c1S(=O)(=O)c1ccccc1 | RT activity / nucleotide incorporation / luminescence | K103N | IC50 | NL4-3 | 1.2 µM
S=C(NCCc1ccc(Br)cc1)Nc1ccc(Br)cn1 | nucleotide incorporation |  | Ki |  | 6.3 µM
C[C@@H](NC(=S)Nc1ccc(Cl)cn1)c1cccc2ccccc12 |  |  | Ki |  | 0.01 µM
COc1cc(CSc2nc(Cc3c(Cl)cccc3Cl)c(C)c(=O)[nH]2)cc(OC)c1 | nucleotide incorporation / radiometric | RT-K103N | IC50 |  | >400 µM
C[C@H](CNC(=S)Nc1ccc(Br)cn1)C1CCCCC1 |  |  | Ki |  | >100 µM
COc1ccc(CSc2nc(Cc3ccc(F)cc3)c(C)c(=O)[nH]2)cc1 | nucleotide incorporation / radiometric |  | IC50 | WT | >400 µM
CNc1ccc(Cl)cc1S(=O)(=O)c1ccccc1[N+](=O)[O-] |  | RT-Y188L | IC50 |  | >100 µM
Cc1ccc(S(=O)(=O)N2CCC(NC(=O)c3cc(O)c(O)c(O)c3)CC2)cc1 | ELISA / nucleotide incorporation |  | IC50 | BH10 | >295.2 µM
Cc1occc1C(=S)Nc1ccc(Cl)c(/C=N/OC(C)(C)C)c1 |  |  | IC50 |  | 5.5 µM
CCc1c(Sc2ccccc2)n(COCc2ccccc2)c(=O)[nH]c1=O | RT activity |  | IC50 | RT-WT | 0.2 µM
COc1ccccc1C(=O)N1CCN(C(=O)c2cc(O)c(O)c(O)c2)CC1 | ELISA / nucleotide incorporation |  | IC50 | BH10 | >50 µM
Cc1c(Cc2c(Cl)cccc2Cl)nc(SCc2ccc(O)cc2)[nH]c1=O | nucleotide incorporation / radiometric | RT-K103N | IC50 |  | >400 µM
Fc1ccc(CCNC(=S)Nc2ccc(Br)cn2)cc1 | nucleotide incorporation |  | Ki |  | 7.8 µM
O=C(/C=C/c1ncc(-c2ccccc2)cn1)Nc1cc(-c2ccc3c(c2)CCCC3)[nH]n1 | RT activity / nucleotide incorporation / luminescence | WT | IC50 | NL4-3 | 0.21 µM
CCCCOc1ccc(CSc2nc(Cc3c(Cl)cccc3Cl)c(C)c(=O)[nH]2)cc1 | nucleotide incorporation / radiometric | RT-181I | IC50 |  | >400 µM

Repeating the final 3 entries:

compound,read by,mutations,endpoint,strain or isolate,value
Fc1ccc(CCNC(=S)Nc2ccc(Br)cn2)cc1,nucleotide incorporation,,Ki,,7.8 µM
O=C(/C=C/c1ncc(-c2ccccc2)cn1)Nc1cc(-c2ccc3c(c2)CCCC3)[nH]n1,RT activity / nucleotide incorporation / luminescence,WT,IC50,NL4-3,0.21 µM
CCCCOc1ccc(CSc2nc(Cc3c(Cl)cccc3Cl)c(C)c(=O)[nH]2)cc1,nucleotide incorporation / radiometric,RT-181I,IC50,,>400 µM

ICn is the concentration giving n% inhibition. An empty or dashed field is not shown.